This passage reports inhibition results from PubChem BioAssay AID602276 (University of Pittsburgh Molecular Library Screening Center, 2012).

This is a selection; strong and weak results do not stand in their true shares. Activity calls are given as the source filed them.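 The calls were made as follows: active = inhibition at or above 50% at 10 µM; inactive = inhibition below 50%.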

A short description of the experiment: inhibitors of Sendai virus-induced IRF3 signaling, primary screen, TLR/RLR signaling modifier project, cell-based, Sendai virus stimulus, luciferase, 10K MLSCN set (AID 602276).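 Also: firefly luciferase from ISG56 promoter only with Renilla not read in this screen; 0% = Sendai virus plus DMSO and 100% = medium plus DMSO without virus.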 The settings on record: HEK293 RL24 IRF3 luciferase reporter, at 10 µM, hits give high values. In general terms: A reporter such as luciferase makes a cellular process visible.
A word on the inhibition: it is the percentage by which the read-out fell short of the control. As to `Cc1ccc(C)c(NP(C)(=O)Oc2ccccc2)c1` (stereo not given), the inhibition was inactive: 16.2%. As for `CP(=S)(Nn1cnnc1)Oc1ccccc1` (stereo not given), the inhibition was inactive: 1.28%.

Consider `CP(=O)(Nc1ccccn1)Oc1ccccc1` (stereo not given), for which the inhibition is inactive: 10.4%. In the case of `CN(C)CCOC(=O)C(O)(c1ccccc1)C1CCCCC1` (stereo not given), the inhibition is inactive: 0.631%. On to `CP(=O)(Nc1ccc2c(c1)OCCO2)Oc1ccccc1` (stereo not given), for which the inhibition is inactive: 11.7%.
